Values from PubChem BioAssay AID504761 (Drosophila RNAi Screening Center, 2011).
Test: 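Insect host genes that dengue virus relies on to spread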 (primary screen). System: D.Mel-2 cells from Drosophila. Reagent: long dsRNA against Drosophila genes. Conditions: infection with dengue virus type 2; dose and infection time not stated. Detection: 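Cells stained for dengue envelope protein and imaged; percent of infected cells per well on duplicate plates, ranked by infection, with stained nuclei counted for cell number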. Reading the numbers: infection score: higher = more virus-infected cells; cell count: higher = more cells in the well. Call rule: 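Low infection ranks in the two replicates (chance level up to 0.065) followed by a retest with a 1.5-fold or larger significant decrease, p below 0.05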. Meaning of the calls: active = confirmed: knock-down lowers infection; inactive = not picked or not confirmed.
The deposit covers about 22,000 reagents; shown is a random part of those with a known target gene and a result. In the full data, 116 (0.52%) are marked active. 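Calls depend on retest data that are not deposited; infection was ranked per plate without normalising between plates; the unit of the infection score is not given.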 The raw values are shown without normalisation. Reagents against one gene are numbered here. Names joined by + are all predicted targets of the reagent. The record does not give: the amount of reagent, the time to read-out.

| gene | reagent no. | infection score, replicate 1 | infection score, replicate 2 | cell count, replicate 1 | cell count, replicate 2 | outcome |
| --- | --- | --- | --- | --- | --- | --- |
| Dhrs4 | 1 | 9.03 | 7.27 | 6501 | 6492 | inactive |
| hig | 1 | 3.21 | 1.69 | 6750 | 6674 | inactive |
| hig | 2 | 1.11 | 8.89 | 6237 | 5950 | inactive |
| hig | 3 | 5.89 | 8.22 | 5887 | 4511 | inactive |
| hig | 4 | 3.27 | 2.99 | 6028 | 5862 | inactive |
| CG30122 | 1 | 1.19 | 0.93 | 6129 | 6440 | inactive |
| sxc | 1 | 2.55 | 14.1 | 5214 | 4405 | inactive |
| sei | 1 | 17.5 | 14.2 | 6139 | 5928 | inactive |
| sei | 2 | 11.3 | 6.01 | 5443 | 5061 | inactive |
| lncRNA:CR32658 | 1 | 6.54 | 7.75 | 6407 | 6854 | inactive |
| lncRNA:CR32658 | 2 | 11.8 | 5.39 | 6423 | 6638 | inactive |
| CG13066 | 1 | 1.08 | 1.24 | 6323 | 6715 | inactive |
| CG7992 | 1 | 2.82 | 0.36 | 6055 | 6112 | inactive |
| CG7246 | 1 | 8.07 | 3.69 | 5194 | 4910 | inactive |
| CG7730 | 1 | 2.47 | 9.66 | 6638 | 7184 | inactive |

4 entries already listed, arranged by “cell count, replicate 1”, low to high:
| gene | reagent no. | infection score, replicate 1 | infection score, replicate 2 | cell count, replicate 1 | cell count, replicate 2 | outcome |
| --- | --- | --- | --- | --- | --- | --- |
| CG7246 | 1 | 8.07 | 3.69 | 5194 | 4910 | inactive |
| CG7992 | 1 | 2.82 | 0.36 | 6055 | 6112 | inactive |
| CG13066 | 1 | 1.08 | 1.24 | 6323 | 6715 | inactive |
| CG7730 | 1 | 2.47 | 9.66 | 6638 | 7184 | inactive |

Additional records follow.
| gene | reagent no. | infection score, replicate 1 | infection score, replicate 2 | cell count, replicate 1 | cell count, replicate 2 | outcome |
| --- | --- | --- | --- | --- | --- | --- |
| mtTFB1 + Ccdc56 | 1 | 1.69 | 7.32 | 6787 | 7390 | inactive |
| CG32588 | 1 | 3.23 | 11.8 | 5721 | 5290 | inactive |
| ATP7 | 1 | 0.89 | 1.39 | 6292 | 6990 | inactive |
| Klp98A | 1 | – | 8.95 | 279 | 4255 | inactive |
| Klp98A | 2 | 6.13 | 2.46 | 6574 | 6638 | inactive |
| su(w[a]) | 1 | 3.86 | 8.21 | 5914 | 6504 | inactive |
| su(w[a]) | 2 | 10.9 | 14.7 | 5208 | 4817 | inactive |
| PTPMT1 | 1 | 1.39 | 4.19 | 6309 | 6535 | inactive |
